Record: PubChem BioAssay AID504811 (Drosophila RNAi Screening Center, 2011)
Screen: 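Fly genes whose silencing alters Listeria monocytogenes infection in cultured cells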 (primary screen). Cell system: Drosophila SL2 cells. Reagent: long dsRNA against Drosophila genes. Conditions: infection with GFP-expressing Listeria monocytogenes; dose and duration not given. Measurement: 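Microscopy of GFP-labelled Listeria in infected cells, with each well visually classed as down, up or spots relative to controls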. Call rule: 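a dsRNA counts as a hit when bacterial fluorescence is plainly weaker, stronger or dotted in clusters relative to control wells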. Meaning of the calls: active = hit; inactive = not a hit.
The reagents shown are a selection, not the whole library. 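Only hits are listed, without non-hit dsRNAs or numeric scores; replicate 2 has entries for just two rows.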 Names joined by + are all predicted targets of the reagent. Not given: the amount of reagent, the time to read-out.

gene | amplicon | infection phenotype, replicate 1 | infection phenotype, replicate 2 | Call
His4r | DRSC16703 | stronger bacterial GFP per infected cell than controls | – | active
crn | DRSC18755 | less bacterial GFP than control wells (fewer infected cells or weaker signal per cell) | – | active
Taf4 | DRSC11297 | less bacterial GFP than control wells (fewer infected cells or weaker signal per cell) | – | active
RpLP1 | DRSC00783 | stronger bacterial GFP per infected cell than controls | – | active
His4:CG33883 + His4:CG33889 + His4:CG33899 + 20 more | DRSC21268 | stronger bacterial GFP per infected cell than controls | – | active
betaCOP | DRSC20312 | less bacterial GFP than control wells (fewer infected cells or weaker signal per cell) | – | active
alphaTub85E | DRSC16899 | less bacterial GFP than control wells (fewer infected cells or weaker signal per cell) | – | active
Syb | DRSC07559 | less bacterial GFP than control wells (fewer infected cells or weaker signal per cell) | – | active
CkIalpha | DRSC20231 | less bacterial GFP than control wells (fewer infected cells or weaker signal per cell) | – | active
grsm | DRSC14165 | stronger bacterial GFP per infected cell than controls | – | active
RpS15 | DRSC07151 | stronger bacterial GFP per infected cell than controls | – | active
Cdk12 | DRSC11836 | less bacterial GFP than control wells (fewer infected cells or weaker signal per cell) | – | active
Hsc70-3 | DRSC20253 | stronger bacterial GFP per infected cell than controls | – | active
Prosbeta6 | DRSC11256 | less bacterial GFP than control wells (fewer infected cells or weaker signal per cell) | – | active
CG11779 | DRSC14384 | stronger bacterial GFP per infected cell than controls | – | active
RpL35A | DRSC12302 | stronger bacterial GFP per infected cell than controls | – | active
RpS26 | DRSC03420 | stronger bacterial GFP per infected cell than controls | – | active
CR11700 (retired record) | DRSC17794 | less bacterial GFP than control wells (fewer infected cells or weaker signal per cell) | – | active
Vps28 | DRSC06168 | less bacterial GFP than control wells (fewer infected cells or weaker signal per cell) | – | active
RpL8 | DRSC08532 | stronger bacterial GFP per infected cell than controls | – | active
RpL8 | DRSC08695 | stronger bacterial GFP per infected cell than controls | – | active
klg | DRSC16978 | bacterial GFP seen as punctate clusters; pointing to bacteria failing to leave the vacuole | – | active
deltaCOP | DRSC18760 | less bacterial GFP than control wells (fewer infected cells or weaker signal per cell) | – | active
vih | DRSC09778 | less bacterial GFP than control wells (fewer infected cells or weaker signal per cell) | – | active
Arf1 | DRSC11606 | less bacterial GFP than control wells (fewer infected cells or weaker signal per cell) | – | active
Polr2A | DRSC20280 | less bacterial GFP than control wells (fewer infected cells or weaker signal per cell) | – | active
RpS24 | DRSC04414 | stronger bacterial GFP per infected cell than controls | – | active
RpL38 | DRSC07818 | stronger bacterial GFP per infected cell than controls | – | active
RpL24 | DRSC03185 | stronger bacterial GFP per infected cell than controls | – | active
snf | DRSC18835 | less bacterial GFP than control wells (fewer infected cells or weaker signal per cell) | – | active
Lpt | DRSC04291 | less bacterial GFP than control wells (fewer infected cells or weaker signal per cell) | – | active
RpS11 | DRSC07289 | stronger bacterial GFP per infected cell than controls | – | active
Arpc4 | DRSC02917 | less bacterial GFP than control wells (fewer infected cells or weaker signal per cell) | – | active
pav | DRSC08730 | stronger bacterial GFP per infected cell than controls | – | active
eIF2gamma | DRSC13081 | stronger bacterial GFP per infected cell than controls | – | active
thr | DRSC07706 | less bacterial GFP than control wells (fewer infected cells or weaker signal per cell) | – | active
Prosbeta3 | DRSC16801 | less bacterial GFP than control wells (fewer infected cells or weaker signal per cell) | – | active
Nup153 | DRSC19904 | stronger bacterial GFP per infected cell than controls | stronger bacterial GFP per infected cell than controls | active
Rab8 | DRSC11261 | less bacterial GFP than control wells (fewer infected cells or weaker signal per cell) | – | active
Sec5 | DRSC00714 | less bacterial GFP than control wells (fewer infected cells or weaker signal per cell) | – | active
dmt | DRSC16932 | stronger bacterial GFP per infected cell than controls | – | active
eater | DRSC15969 | less bacterial GFP than control wells (fewer infected cells or weaker signal per cell) | – | active
CG13258 | DRSC02244 | less bacterial GFP than control wells (fewer infected cells or weaker signal per cell) | – | active
RpL13 | DRSC03416 | stronger bacterial GFP per infected cell than controls | – | active
mTor | DRSC02811 | less bacterial GFP than control wells (fewer infected cells or weaker signal per cell) | – | active
RpL15 | DRSC20963 | stronger bacterial GFP per infected cell than controls | – | active
CG1161 | DRSC12180 | stronger bacterial GFP per infected cell than controls | – | active
RpS21 | DRSC00833 | stronger bacterial GFP per infected cell than controls | – | active
CG17493 | DRSC03798 | less bacterial GFP than control wells (fewer infected cells or weaker signal per cell) | – | active
Dim1 | DRSC00563 | less bacterial GFP than control wells (fewer infected cells or weaker signal per cell) | – | active
RpL40 | DRSC00782 | stronger bacterial GFP per infected cell than controls | – | active
Arp2 | DRSC19332 | less bacterial GFP than control wells (fewer infected cells or weaker signal per cell) | – | active
Arpc2 | DRSC02113 | less bacterial GFP than control wells (fewer infected cells or weaker signal per cell) | – | active
mtt | DRSC05106 | less bacterial GFP than control wells (fewer infected cells or weaker signal per cell) | – | active
RpS18 | DRSC07540 | stronger bacterial GFP per infected cell than controls | – | active
Sar1 | DRSC17049 | less bacterial GFP than control wells (fewer infected cells or weaker signal per cell) | – | active
Prosalpha6 | DRSC03401 | less bacterial GFP than control wells (fewer infected cells or weaker signal per cell) | – | active
RpL37A | DRSC02899 | stronger bacterial GFP per infected cell than controls | – | active
Klp61F | DRSC08671 | stronger bacterial GFP per infected cell than controls | – | active
Ced-12 | DRSC02840 | less bacterial GFP than control wells (fewer infected cells or weaker signal per cell) | – | active
Rpn8 | DRSC04624 | less bacterial GFP than control wells (fewer infected cells or weaker signal per cell) | – | active
Hsp70Aa + Hsp70Ab | DRSC21246 | bacterial GFP seen as punctate clusters; pointing to bacteria failing to leave the vacuole | – | active
Trf2 | DRSC18727 | less bacterial GFP than control wells (fewer infected cells or weaker signal per cell) | – | active
RpS14a | DRSC18710 | stronger bacterial GFP per infected cell than controls | – | active
Dp | DRSC07402 | stronger bacterial GFP per infected cell than controls | – | active
Rpt2 | DRSC16799 | less bacterial GFP than control wells (fewer infected cells or weaker signal per cell) | – | active
alphaSnap | DRSC11285 | less bacterial GFP than control wells (fewer infected cells or weaker signal per cell) | – | active
Mfap1 | DRSC08154 | less bacterial GFP than control wells (fewer infected cells or weaker signal per cell) | – | active
Pomp | DRSC03201 | less bacterial GFP than control wells (fewer infected cells or weaker signal per cell) | – | active
RpL30 | DRSC02087 | stronger bacterial GFP per infected cell than controls | – | active
pic | DRSC16639 | less bacterial GFP than control wells (fewer infected cells or weaker signal per cell) | – | active
Spt5 | DRSC07556 | less bacterial GFP than control wells (fewer infected cells or weaker signal per cell) | – | active
Syx1A | DRSC15359 | less bacterial GFP than control wells (fewer infected cells or weaker signal per cell) | – | active
Prosalpha2 | DRSC16798 | less bacterial GFP than control wells (fewer infected cells or weaker signal per cell) | – | active

An excerpt from above, showing only “infection phenotype, replicate 1”:
Rpn8 [DRSC04624] = less bacterial GFP than control wells (fewer infected cells or weaker signal per cell)
Hsp70Aa + Hsp70Ab [DRSC21246] = bacterial GFP seen as punctate clusters; pointing to bacteria failing to leave the vacuole
Trf2 [DRSC18727] = less bacterial GFP than control wells (fewer infected cells or weaker signal per cell)
RpS14a [DRSC18710] = stronger bacterial GFP per infected cell than controls
Dp [DRSC07402] = stronger bacterial GFP per infected cell than controls
Rpt2 [DRSC16799] = less bacterial GFP than control wells (fewer infected cells or weaker signal per cell)
alphaSnap [DRSC11285] = less bacterial GFP than control wells (fewer infected cells or weaker signal per cell)
Mfap1 [DRSC08154] = less bacterial GFP than control wells (fewer infected cells or weaker signal per cell)
Pomp [DRSC03201] = less bacterial GFP than control wells (fewer infected cells or weaker signal per cell)
RpL30 [DRSC02087] = stronger bacterial GFP per infected cell than controls
pic [DRSC16639] = less bacterial GFP than control wells (fewer infected cells or weaker signal per cell)
Spt5 [DRSC07556] = less bacterial GFP than control wells (fewer infected cells or weaker signal per cell)
